Anti-infective test results gathered from many reports (values: NIAID ChemDB through PubChem).

Common to all: tests in culture; species: Human cytomegalovirus; endpoint: EC50

ECn is the concentration giving n% inhibition of infection, replication or growth.

{"structure": "Cc1cc(C)cc(Cn2c(=O)ccn(Cc3cccnc3)c2=O)c1", "strain or isolate": "AD169", "result": "31 µM"}
{"structure": "Cc1nc(NC2Cc3cccc(F)c3C2)nc(-n2ccnc2)c1[N+](=O)[O-]", "result": "0.125 µM"}
{"structure": "Cc1cc(C)cc(Cn2c(=O)cc(Cl)n(CC#N)c2=O)c1", "strain or isolate": "AD169", "result": ">66 µM"}
{"structure": "Nc1nc2c(ncn2[C@@H]2C=C[C@H](CO)[C@@H](O)C2)c(=O)[nH]1", "strain or isolate": "U 9070", "result": "0.13 µg/mL"}
{"structure": "Cc1nc(NC2CCc3c(F)cccc32)nc(-n2ccnc2C)c1[N+](=O)[O-]", "result": "0.05 µM"}
{"structure": "Cc1ccc(Cn2c(=O)ccn(CC#N)c2=O)cc1", "strain or isolate": "AD169", "result": "78 µM"}
{"structure": "Cc1nc(NC2CCc3cc(F)ccc32)nc(-n2ccnc2)c1[N+](=O)[O-]", "result": "0.35 µM"}
{"structure": "O=c1[nH]c(=O)n([C@@H]2C[C@H](CO)C[C@H]2CO)cc1I", "cell line": "HEL", "strain or isolate": "DAVIS", "result": ">100 µg/mL"}
{"structure": "Cc1cc(C)cc(Cn2c(=O)ccn(Cc3ccccc3Cl)c2=O)c1", "strain or isolate": "AD169", "result": "21 µM"}
{"structure": "CCOC(=O)/C=C/C=C/[C@H]1O[C@@H](n2ccc(=O)[nH]c2=O)[C@H](O)[C@@H]1O", "cell line": "HEL", "strain or isolate": "AD169", "result": ">120 µM"}
{"structure": "OC[C@H]1CC(n2cnc3c(NC4CC4)ncnc32)C[C@@H]1CO", "cell line": "HEL", "strain or isolate": "DAVIS", "result": ">100 µg/mL"}
{"structure": "CCc1nccn1-c1nc(NC2CCc3cc(F)c(F)cc32)nc(C)c1[N+](=O)[O-]", "result": "0.18 µM"}
{"structure": "Cc1cc(C)cc(Cn2c(=S)ccn(CC(=O)c3ccccc3)c2=O)c1", "strain or isolate": "AD169", "result": ">14 µM"}
{"structure": "Cc1nc(N(C)Cc2ccccc2)nc(-n2ccnc2C)c1[N+](=O)[O-]", "result": "0.06 µM"}
{"structure": "O=c1ccn([C@@H]2C[C@H](CO)C[C@H]2CO)c(=O)[nH]1", "cell line": "HEL", "strain or isolate": "DAVIS", "result": ">100 µg/mL"}

For reference, 2 entries again:

structure | cell line | strain or isolate | result
Cc1cc(C)cc(Cn2c(=S)ccn(CC(=O)c3ccccc3)c2=O)c1 |  | AD169 | >14 µM
O=c1ccn([C@@H]2C[C@H](CO)C[C@H]2CO)c(=O)[nH]1 | HEL | DAVIS | >100 µg/mL

An empty or dashed field is not shown. Lines come from different laboratories, so protocols vary.